From patent publication US20060094693A1, “Methods and compositions for treating glucose-associated conditions, metabolic syndrome, dyslipidemias and other conditions” (Point Therapeutics, Inc., priority 2004, published 2006) come the findings set out here.

The chains behind the UniProt entries cited, without tags or fusion partners. Residues count along the entry.
UniProt P14740, 37-767 limits assumed: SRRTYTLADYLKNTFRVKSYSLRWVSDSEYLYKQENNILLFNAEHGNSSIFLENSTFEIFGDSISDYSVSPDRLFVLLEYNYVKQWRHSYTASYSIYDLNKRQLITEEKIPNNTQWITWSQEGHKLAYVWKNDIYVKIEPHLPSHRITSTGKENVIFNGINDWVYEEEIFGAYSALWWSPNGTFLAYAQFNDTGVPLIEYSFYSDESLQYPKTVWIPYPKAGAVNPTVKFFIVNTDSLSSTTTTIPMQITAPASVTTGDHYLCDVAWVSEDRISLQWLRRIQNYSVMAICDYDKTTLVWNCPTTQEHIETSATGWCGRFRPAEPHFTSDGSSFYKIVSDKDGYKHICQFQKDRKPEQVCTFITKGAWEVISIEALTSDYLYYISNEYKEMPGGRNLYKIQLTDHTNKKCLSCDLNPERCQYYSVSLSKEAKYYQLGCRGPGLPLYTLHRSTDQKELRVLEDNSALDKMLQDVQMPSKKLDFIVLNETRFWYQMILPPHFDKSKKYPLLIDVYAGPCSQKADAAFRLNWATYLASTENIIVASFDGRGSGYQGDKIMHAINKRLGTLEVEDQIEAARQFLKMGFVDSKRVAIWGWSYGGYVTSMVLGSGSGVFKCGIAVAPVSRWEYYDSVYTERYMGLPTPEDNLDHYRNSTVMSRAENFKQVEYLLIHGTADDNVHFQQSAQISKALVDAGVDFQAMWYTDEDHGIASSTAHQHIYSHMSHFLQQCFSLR

The target in the test is T1, serum DPP-IV (Rattus norvegicus, UniProt P14740).
T1 construct: from tissue; host or cells: serum of Lewis rats dosed with the compounds
Put plainly: Serum DPP-IV inhibition in Lewis rats. The note with it: ratio of ID50 values. It counts as in vivo. The procedure:
Assay of serum DPP-IV inhibition in vivo. Varying doses (0.02, 0.2, 2.0, 20.0 μg/mouse) of Glu-boroPro dissolved in normal saline or the saline vehicle alone were administered to BALB/c mice by oral gavage. Each mouse received a single administration of Glu-boroPro or saline, and blood samples were withdrawn from mice 2 hours later. […]. DPP-IV activity was determined by reaction of 10 μl serum with 90 μl of 0.11 mM Ala-Pro-AFC (Enzyme System Products, Dublin, Calif.) in 50 mM HEPES/Na buffer pH 7.6, 140 mM NaCl. Assays were incubated for 30 minutes, stopped and fluorometric measurements made as described in Example 1. […].

Structures are written as SMILES.

Consider `N[C@@H](CCC(=O)O)C(=O)N1CCC[C@H]1B(O)O` [Glu-boroPro, glutamic acid boroproline], for which the “potency as inhibitor of serum DPP-IV, less potent than Val-boroPro” value is given as approximately 10 fold.
